Measured values from several laboratories, pooled; numbers as filed in NIAID ChemDB.

Common to all: growth or infection tests; agent: Candida albicans; read-out: MIC

Lines come from different laboratories, so protocols vary. Blank or dashed fields: not listed here.

structure	strain	read by	setting	result
C[C@@H](n1cnc2ccc(Br)cc2c1=O)[C@](O)(Cn1cncn1)c1ccc(F)cc1F	76 strains	-	-	20 µg/mL
Nc1ncnc2c1ncn2[C@@H]1O[C@H](C(=O)O)[C@@H](NC(=O)C(N)CSCc2ccccc2Cl)[C@H]1O	FP633	-	-	0.8 µg/mL
CC[C@@H]([C@H](C)O)n1ncn(-c2ccc(N3CCN(c4ccc(OC[C@@H]5CO[C@@](Cn6cncn6)(c6ccc(F)cc6F)C5)cc4)CC3)cc2)c1=O	15 isolates	broth dilution	pH 6	0.03 µg/mL
CC(=O)N1CCN(c2ccc(OC[C@H]3CO[C@](Cn4ccnc4)(c4ccc(Cl)cc4Cl)O3)cc2)CC1	SGY-243	-	-	0.08 µg/mL
C[C@@H](n1cnc2cc(OCCF)ccc2c1=O)[C@](O)(Cn1cncn1)c1ccc(F)cc1F	76 strains	-	-	0.15 µg/mL
C[C@@H](O)[C@@H]1NC(=O)[C@H](CCc2ccc(O)cc2)NC(=O)[C@@H]2C[C@@H](O)CN2C(=O)[C@H]([C@@H](C)O)NC(=O)[C@@H](NC(=O)c2ccccc2)CCCNC(=O)[C@@H]2C[C@H](N)CN2C1=O	ATCC 38247	-	-	>100 µg/mL
Cn1ncc2c3ccccc3n(C)c2c1=O	-	broth dilution	-	250 µg/mL
Nc1[nH]c(=O)ncc1F	10 isolates	broth dilution	pH 4	0.5 µg/mL
CC(C)(O)c1cn(-c2ccc(Cl)cc2)nn1	URM 4986	broth dilution	-	128 µg/mL
Nc1ncnc2c1ncn2[C@@H]1O[C@H](C(=O)O)[C@@H](NC(=O)[C@H](N)CSSc2ccccc2)[C@H]1O	FP633	-	-	25 µg/mL
C[C@@H](c1ncncc1F)[C@](O)(Cn1cncn1)c1ccc(F)cc1F	10 isolates	broth dilution	pH 7	0.03 µg/mL
C[C@@H](NC(=O)c1ccc(Cl)cc1N)[C@](O)(Cn1cncn1)c1ccc(F)cc1F	76 strains	-	-	>80 µg/mL
CNc1ccc(C(=O)CC(O)CCC(C)C2OC(=O)CC(O)CC(=O)CC(O)CC(O)CC(O)CC(O)CC3(O)CC(O)C(C(=O)NCCN(C)C)C(CC(O[C@@H]4O[C@H](C)[C@@H](O)[C@H](NC(=O)CN5CCN(C)CC5)[C@@H]4O)/C=C/C=C/C=C/C=C\C=C/C=C/C=C/C2C)O3)cc1	200	-	-	0.12 µg/mL
CCc1ccccc1-n1ncc2c3ccccc3n(C)c2c1=O	-	broth dilution	-	250 µg/mL
CC(C)N=C(N)c1ccc2nc(-c3ccc4c(c3)Cc3cc(-c5nc6ccc(C(N)=NC(C)C)cc6[nH]5)ccc3-4)[nH]c2c1	Isolate 3022 fluconazole-resistant	-	-	1.56 µg/mL
O=[n+]1c(Sc2ccccc2)c(CBr)n([O-])c2ccccc21	Clinical isolate 24	-	-	31.25 µg/mL
C[C@H]1[C@H](O)[C@@H](C)/C=C/C=C/C=C/C=C/C=C/C=C/C=C/[C@H](O[C@@H]2O[C@H](C)[C@@H](O)[C@H](N)[C@@H]2O)C[C@@H]2O[C@](O)(C[C@@H](O)C[C@@H](O)CC[C@H](O)[C@@H](O)C[C@@H](O)CC(=O)O[C@H]1C)C[C@H](O)[C@H]2C(=O)O	ATCC64545	-	-	0.5 µg/mL
CSc1ccc2c(=O)n([C@H](C)[C@](O)(Cn3cncn3)c3ccc(F)cc3F)cnc2c1	76 strains	-	-	≤0.03 µg/mL
CC(=C/C=C/C(=O)O)/C=C/C=C(\C)C(O)C(C)C(=O)O[C@H]1C[C@H](C)C=C2C=C[C@@]3(C)O[C@@H](O)CC(=O)[C@]3(C)[C@H]21	ATCC 10231	-	-	3.12 µg/mL
CCOC(=O)c1[nH]c2ccccc2c1C=O	-	broth dilution	-	250 µg/mL
Clc1ccc(/C(Cn2ccnc2)=N/OCc2ccccc2)cc1	CA2	-	-	16 µg/mL
CCCCCOc1ccc(-c2ccc(-c3ccc(C(=O)N[C@H]4CCCNC(=O)[C@@H]5C[C@H](N)CN5C(=O)[C@H](Cc5ccc(O)cc5)NC(=O)C(CCc5ccc(O)cc5)NC(=O)[C@@H]5C[C@@H](O)CN5C(=O)[C@H]([C@@H](C)O)NC4=O)cc3)cc2)cc1	ATCC 38247	-	-	1.56 µg/mL
CC(C)SCC[C@H](N)C(=O)N[C@H]1[C@@H](O)[C@H](n2cnc3c(N)ncnc32)O[C@@H]1C(=O)O	FP633	-	-	25 µg/mL
Clc1ccc(/C(Cn2ccnc2)=N/OCc2ccccc2)c(Cl)c1	3M	-	-	8 µg/mL
COc1ccc(CSCC(N)C(=O)N[C@H]2[C@@H](O)[C@H](n3cnc4c(N)ncnc43)O[C@@H]2C(=O)O)cc1	FP633	-	-	0.4 µg/mL
Cc1c(Cl)[n+](=O)c2cc(Cl)ccc2n1[O-]	Clinical isolate 14	-	-	31.25 µg/mL
Cc1cc(-c2ccccc2)cc(C)[n+]1-c1cccc(S(=O)(=O)Nc2ccc3c(c2)Sc2ccccc2O3)c1	C316	-	-	7 µg/mL
CCn1c2ccccc2c2cnn(C)c(=O)c21	-	broth dilution	-	250 µg/mL
O=[N+]([O-])c1ccc(S(=O)(=O)Nc2ccc3c(c2)Sc2ccccc2O3)cc1Cl	C316	-	-	1 µg/mL
O=C(c1ccccc1)c1oc2ccc(Cl)cc2c1Cn1cncn1	NRRL Y-27077	-	-	25 µg/mL
CCC(C)CC(C)CCCCCCCCC(=O)N[C@H]1C[C@@H](O)[C@H](NCCN)NC(=O)[C@@H]2[C@@H](O)CCN2C(=O)[C@H]([C@H](O)CCN)NC(=O)[C@H]([C@H](O)[C@@H](O)c2ccc(O)cc2)NC(=O)[C@@H]2C[C@@H](O)CN2C(=O)[C@H]([C@@H](C)O)NC1=O	15 isolates	broth dilution	pH 7	0.06 µg/mL
O=S(=O)(Nc1ccc2c(c1)Sc1ccccc1O2)c1cccc(-[n+]2c(-c3ccccc3)cc(-c3ccccc3)cc2-c2ccccc2)c1	C316	-	-	3 µg/mL
CCn1cc(-c2cccc3ccccc23)c(C(c2ccc(Cl)cc2Cl)n2ccnc2)c1	-	-	-	1.1 µg/mL
c1ccc(CO/N=C(/Cn2ccnc2)c2ccccc2)cc1	CDCB385	-	-	64 µg/mL
CCCCCCCOc1ccc(N2CCN(c3ccc(C(=O)N[C@H]4CCCNC(=O)[C@@H]5C[C@H](N)CN5C(=O)[C@H]([C@@H](C)O)NC(=O)[C@H](Cc5ccc(CO)cc5)NC(=O)[C@@H]5CCCN5C(=O)[C@H](C(C)O)NC4=O)cc3)CC2)cc1	ATCC 62376	-	-	12.5 µg/mL
CNc1ccc(C(=O)CC(O)CCC(C)C2OC(=O)CC(O)CC(=O)CC(O)CC(O)CC(O)CC(O)CC3(O)CC(O)C(C(=O)NCCN(C)C)C(CC(O[C@@H]4O[C@H](C)[C@@H](O)[C@H](NC(=O)CN5CCN(CCO)CC5)[C@@H]4O)/C=C/C=C/C=C/C=C\C=C/C=C/C=C/C2C)O3)cc1	200	-	-	0.06 µg/mL
C[C@@H](n1cnc2ccc(Cl)cc2c1=O)[C@](O)(Cn1cncn1)c1ccc(F)cc1F	60 strains	-	-	0.07 µg/mL
C[C@H]1[C@H](O)[C@@H](C)/C=C/C=C/C=C/C=C/C=C/C=C/C=C/[C@H](O[C@@H]2O[C@H](C)[C@@H](O)[C@H](N)[C@@H]2O)C[C@@H]2O[C@](O)(C[C@@H](O)C[C@@H](O)CC[C@H](O)[C@@H](O)C[C@@H](O)CC(=O)O[C@H]1C)C[C@H](O)[C@H]2C(=O)O	200	-	-	0.96 µg/mL
Cc1c(C(=O)c2ccc(Cl)cc2)oc2ccc(Cl)cc12	NRRL Y-27077	-	-	25 µg/mL
CCCCCCCCCCCCCCC(=O)N[C@H]1CCCNC(=O)[C@@H]2C[C@H](N)CN2C(=O)[C@H]([C@@H](C)O)NC(=O)[C@H](CCc2ccc(O)cc2)NC(=O)[C@@H]2C[C@@H](O)CN2C(=O)[C@H]([C@@H](C)O)NC1=O	ATCC 62376	-	-	0.78 µg/mL
C[C@@H](c1ncncc1F)[C@](O)(Cn1cncn1)c1ccc(F)cc1F	Isolate 98-234	-	-	0.25 µg/mL
CNc1ccc(C(=O)CC(O)CCC(C)C2OC(=O)CC(O)CC(=O)CC(O)CC(O)CC(O)CC(O)CC3(O)CC(O)C(C(=O)N4CCN(C)CC4)C(CC(O[C@@H]4O[C@H](C)[C@@H](O)[C@H](NC(=O)CCN5CCCCC5)[C@@H]4O)/C=C/C=C/C=C/C=C\C=C/C=C/C=C/C2C)O3)cc1	200	-	-	0.06 µg/mL
Fc1ccc(/C(Cn2ccnc2)=N/OCc2ccccc2)cc1	CA2	-	-	128 µg/mL
CCCCCN[C@H]1CCCNC(=O)[C@@H]2C[C@H](N)CN2C(=O)[C@H]([C@@H](C)O)NC(=O)[C@H](CCc2ccc(O)cc2)NC(=O)[C@@H]2C[C@@H](O)CN2C(=O)[C@H]([C@@H](C)O)NC1=O	ATCC 62376	-	-	0.2 µg/mL
Nc1ncnc2c1ncn2[C@@H]1O[C@H](C(=O)O)[C@@H](NC(=O)C(N)CSCc2ccc3c(c2)OCO3)[C@H]1O	FP633	-	-	0.2 µg/mL
CCCCCCCCCCCCN[C@H]1CCCNC(=O)[C@@H]2C[C@H](N)CN2C(=O)[C@H]([C@@H](C)O)NC(=O)[C@H](CCc2ccc(O)cc2)NC(=O)[C@@H]2C[C@@H](O)CN2C(=O)[C@H]([C@@H](C)O)NC1=O	ATCC 38247	-	-	1.56 µg/mL
CCCn1cc(-c2ccc(Cl)cc2)c(C(c2ccccc2)n2ccnc2)c1	-	-	-	0.023 µg/mL
O=S(=O)(Cc1ccccc1)Nc1ccc2c(c1)Sc1ccccc1O2	C316	-	-	17 µg/mL
Cn1cc(-c2ccc(Cl)cc2)c(C(c2ccccc2)n2ccnc2)c1	-	-	-	0.025 µg/mL
CCOc1cc2c(cc1F)n([O-])c(C)c(Cl)[n+]2=O	Clinical isolate 16	-	-	62.5 µg/mL
CCCCCOc1ccc(-c2ccc(-c3ccc(C(=O)N[C@H]4CCCNC(=O)[C@@H]5C[C@H](N)CN5C(=O)[C@H](CC)NC(=O)C(CCc5ccc(O)cc5)NC(=O)[C@@H]5C[C@@H](O)CN5C(=O)[C@H]([C@@H](C)O)NC4=O)cc3)cc2)cc1	ATCC 38247	-	-	0.39 µg/mL
C[C@@H](n1cnc2cc(-[n+]3cnc[nH]3)ccc2c1=O)[C@](O)(Cn1cncn1)c1ccc(F)cc1F	76 strains	-	-	10 µg/mL
O=C(c1ccc(Cl)cc1)c1oc2ccc(Cl)cc2c1Cn1cncn1	Clinical isolate	-	-	25 µg/mL
Clc1ccc(C(c2ccn(-c3ccc(Cl)cc3)c2)n2ccnc2)cc1	-	-	-	7.3 µg/mL
Cc1cc(C)[n+](-c2ccc(S(=O)(=O)Nc3ccc4c(c3)Sc3ccccc3O4)cc2)c(C)c1	C316	-	-	14 µg/mL
Cc1c(Sc2ccccc2)[n+](=O)c2cc(Cl)ccc2n1[O-]	Clinical isolate 17	-	-	31.25 µg/mL
Nc1ncnc2c1ncn2[C@@H]1O[C@H](C(=O)O)[C@@H](NC(=O)C(N)Cc2cc[nH]c2)[C@H]1O	FP633	-	-	100 µg/mL
O=S(=O)(Nc1ccc2c(c1)Sc1ccccc1O2)c1ccc(I)cc1	C316	-	-	10 µg/mL
CCn1c2ccccc2c2cnn(-c3ccc(F)cc3)c(=O)c21	-	broth dilution	-	250 µg/mL
O=C(c1ccccc1)c1oc2ccccc2c1Cn1ccnc1	Clinical isolate	-	-	25 µg/mL
O=S(=O)(Nc1ccc2c(c1)Sc1ccccc1O2)C(F)(F)F	C316	-	-	33 µg/mL